A mixed list of measured activities; the numbers were collected in NIAID ChemDB.

Common to all: growth or infection tests; species: HIV-1; cells: MT-4; endpoint: EC50

Conditions beyond the fields shown may differ between rows.

SMILES	strain	mutations	read by	result
O=S1(=O)N=C(OCc2ccccc2)c2ccccc2N1Cc1ccc(Cl)c(Cl)c1	IIIB		cytopathic effect	>250 µM
Cc1cc(C)cc(S(=O)(=O)c2c(C(N)=O)[nH]c3c(Cl)cc(Cl)cc23)c1		RT-K103N Y181C	cytopathic effect / MTT	>100 µM
CCOC(=O)c1cccn1S(=O)(=O)c1cc(Cl)ccc1NS(=O)(=O)c1ccc(Cl)cc1	IIIB		cytopathic effect / XTT	>17 µM
CCc1c(Sc2ccccc2)n(COCc2ccccc2)c(=O)[nH]c1=O	IIIB		cytopathic effect / MTT	0.0049 µM
O=C1c2ccccc2N(Cc2ccccc2)S(=O)(=O)N1Cc1ccccc1Cl	IIIB		cytopathic effect	≥10 µM
CC1=C(C)[C@]2(C)C(C)[C@@]1(C)[C@@H]1C(=O)N(NC(=O)NC3CCCCC3)C(=O)[C@@H]12	IIIB		cytopathic effect / MTT	>12 µM
CC(NC(=S)Nc1nc2ccccc2s1)c1ccccc1	IIIB	EFV-resistant	MTT	>38 µM
Cc1cc(C)cc(S(=O)(=O)c2c(C(=O)/C=C/C(N)=O)[nH]c3ccc(Cl)cc23)c1		RT-Y181C	cytopathic effect / MTT	0.6 µM
O=C1CS/C(=N\c2nc3ccccc3s2)N1c1ccc(I)cc1	IIIB		MTT	>29 µM
COc1ccccc1C(C#N)c1nc(SC(C)C)[nH]c(=O)c1C	IIIB		MTT	0.04 µM
COC(=O)[C@H](Cc1ccccc1)NP(=O)(OC[C@@H]1C=C[C@H](n2ccc3c(N)ncnc32)C1)Oc1ccccc1			cytopathic effect / MTS	29 µM
Cc1cc(C(C)(C)C)ccc1N1C(=O)CS/C1=N\c1nc2ccccc2s1	IIIB		MTT	>86 µM
CC(C)c1c(Cc2ccccc2)n(COCc2ccccc2)c(=O)[nH]c1=O	SF33		p24 / ELISA	0.022 µM
CCOC(=O)c1cccn1S(=O)(=O)c1cc(Cl)ccc1NS(=O)(=O)c1ccc(C)cc1	IIIB		cytopathic effect / XTT	>41 µM
COC(=O)[C@H](C)NP(=O)(OC[C@@H]1CC[C@H](n2ccc3c(N)ncnc32)C1)Oc1ccccc1			cytopathic effect / MTS	9.3 µM
CC(=O)Nc1ccc(Cl)cc1S(=O)(=O)n1ccc(C(C)=O)c1	IIIB		cytopathic effect / XTT	>200 µM
Cc1cc(C)cc(S(=O)(=O)c2c(C(=O)NCC(N)=O)[nH]c3ccc(Cl)cc23)c1			p24	<0.06 µM
CCOC(=O)c1c(CSc2ccccc2)n(C)c2cc(Br)c(O)c(CN(C)C)c12	NL4-3		MTT	20.32 µM
CC1(C)CC=C(c2cn(-c3nccc(C(=O)NC4CCC(N5CC6CCC(C5)O6)CC4)n3)c3ccc(F)c([C@H](OC(C)(C)C)C(=O)O)c23)CC1	NL4-3		luminescence	0.0036 µM
CC(C)C1=C2C(CC1=O)[C@@H](C(=O)NCCN(CCN(C)C)Cc1ccc(Cl)cc1)C[C@@H]1[C@@H]2CCC2C3C(CC[C@]21C)C(C)(C)C(C1=CC[C@H](C(=O)O)CC1)=C[C@H]3C	NL4-3	V370A	MTS / propidium iodide	>22 µM
CCOC(=O)c1cccn1S(=O)(=O)c1ccc(NC(N)=O)cc1	IIIB		cytopathic effect / XTT	>128.8 µM
CC(C)C1=C2C(CC1=O)[C@@H](C(=O)NCCN1CCC(S(C)(=O)=O)CC1)C[C@@H]1[C@@H]2CC[C@@H]2C3[C@H](C)C=C(C4=CCC(C(=O)O)CC4)C(C)(C)[C@@H]3CC[C@]21C	NL4-3	V370A	MTS / propidium iodide	>25 µM
COc1ccc(NC(=S)NN2C(=O)[C@@H]3[C@H](C2=O)[C@]2(C)C(C)=C(C)[C@@]3(C)C2C)cc1	IIIB		cytopathic effect / MTT	>55 µM
COC(=O)[C@H](C)NP(=O)(OC[C@H]1CC[C@@H](n2cnc3c(N)ncnc32)C1)Oc1ccccc1			cytopathic effect / MTS	18 µM
Nc1nc(=O)n([C@H]2O[C@@H](CO)[C@@H](O)[C@@H]2O)cc1F	IIIB		cytopathic effect / MTT	>100 µM
CCOC(=O)c1cccn1S(=O)(=O)c1cc(Cl)ccc1NC(=O)CN1CCN(C(C)=O)CC1	IIIB		cytopathic effect / XTT	16.5 µM
COC(=O)C(C)(C)NP(=O)(OC[C@@H]1C=C[C@H](n2ccc3c(N)ncnc32)C1)Oc1ccccc1			cytopathic effect / MTS	>490 µM
O=S1(=O)N=C(OCc2ccc(Cl)cc2)c2ccccc2N1Cc1ccc(Cl)cc1	IIIB		cytopathic effect	>10 µM
Nc1nc(=O)n([C@H]2O[C@@H](CO)[C@H](O)[C@@H]2O)cc1F	IIIB		cytopathic effect / MTT	>100 µM
CC(C)[C@]12C=C[C@](C)(CC1)[C@H]1C(=O)N(NC(=S)Nc3ccccc3)C(=O)[C@H]12	IIIB		cytopathic effect / MTT	>60 µM
O=C1c2ccccc2N(Cc2ccccc2)S(=O)(=O)N1COCc1ccccc1	IIIB		cytopathic effect	7.9–22.1 µM
CCOC(=O)c1cccn1S(=O)(=O)c1cc(Cl)ccc1NC(=O)Oc1ccc(C)cc1	IIIB		cytopathic effect / XTT	152.5 µM
CCCN(C)c1nc(C(C)c2c(F)cccc2F)c(C)c(=O)[nH]1	NL4-3		MTT	0.0019 µM
CCOC(=O)c1cccn1S(=O)(=O)c1ccc(N)cc1	IIIB		cytopathic effect / XTT	179 µM
Cc1c(C(C)c2c(F)cccc2F)nc(N(C)C)[nH]c1=O			MTT	0.01 µM
Cc1nc2ccccc2c(-c2cc(F)c3c(c2C)CCCO3)c1[C@H](OC(C)(C)C)C(=O)O	NL4-3	D167E	luminescence	0.021 µM
CCOC(=O)c1cccn1S(=O)(=O)c1cc(Cl)ccc1NC(=O)CS(C)(=O)=O	IIIB		cytopathic effect / XTT	20 µM
Cc1cn([C@H]2C[C@H](N=[N+]=[N-])[C@@H](CO)O2)c(=O)[nH]c1=O	IIIB	A17	MTT	0.01 µM
Nc1nc(=O)n([C@@H]2C[C@@H](O)[C@H](CO)O2)cc1F	IIIB		cytopathic effect / MTT	>100 µM
S=C(NCc1ccco1)Nc1nc2ccccc2s1	IIIB		MTT	>67 µM
CC1=C(C)[C@]2(C)C(C)[C@@]1(C)[C@@H]1C(=O)N(NC(=S)NC3CCCCC3)C(=O)[C@@H]12	IIIB		cytopathic effect / MTT	>48 µM

The last 2 rows once more:

S=C(NCc1ccco1)Nc1nc2ccccc2s1 ; strain: IIIB ; read by: MTT ; result: >67 µM
CC1=C(C)[C@]2(C)C(C)[C@@]1(C)[C@@H]1C(=O)N(NC(=S)NC3CCCCC3)C(=O)[C@@H]12 ; strain: IIIB ; read by: cytopathic effect / MTT ; result: >48 µM

An empty or dashed field is not shown. a–b is a range or a potency band. ECn: concentration that inhibits the pathogen or its effect by n%.